T1: Staphylococcus aureus alpha-toxin (Hla), USA300 TCH1516 strain
T1 chain: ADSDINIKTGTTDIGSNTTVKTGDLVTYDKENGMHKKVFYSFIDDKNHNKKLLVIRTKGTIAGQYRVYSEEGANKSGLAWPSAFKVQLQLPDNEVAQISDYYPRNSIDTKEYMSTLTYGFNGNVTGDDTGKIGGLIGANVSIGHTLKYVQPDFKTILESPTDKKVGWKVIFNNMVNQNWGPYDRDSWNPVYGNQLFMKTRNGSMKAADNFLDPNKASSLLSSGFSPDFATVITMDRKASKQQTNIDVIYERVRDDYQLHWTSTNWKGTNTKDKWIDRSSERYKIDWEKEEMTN


Target: T1, Staphylococcus aureus alpha-toxin …

Row | Binder | Kd
1 | AB-28-6 Fab (Fab, V domains shown) VH: QVQLQESGPGLVRPSETLSLTCAVSGYSISSGMGWGWIRQPPGKGLEWIGSIDQRGSTYYNPSLKSRVTISVDTSKNQFSLKLSSVTAADTAVYYCARDAGHAVDMDVWGKGTTVTVSS VL: DIQMTQSPSSVSASVGDRVTITCRASQGISRWLAWYQQKPGKAPKLLIYAASSLQSGVPSRFSGSGSGTDFTLTISSLQPEDFATYYCQQGYVFPLTFGGGTKVEIK | < 2 pM
2 | AB-28-9 Fab (Fab, V domains shown) VH: EVQLQESGPGLVRPSETLSLTCAVSGYSISSGMGWGWIRQPPGKGLEWIGSIDQRGSTYYNPSLKSRVTISVDTSKNQFSLKLSSVTAADTAVYYCARDAGHAVDMDVWGKGTTVTVSS VL: DIQMTQSPSSVSASVGDRVTITCRASQGISRWLAWYQQKPGKAPKLLIYAASSLQSGVPSRFSGSGSGTDFTLTISSLQPEDFATYYCQQGYVFPLTFGGGTKVEIK | < 2 pM
3 | AB-28-5 (antibody, V domains shown) VH: QVQLQESGPGLVKPSETLSLTCAVSGYSISSGMGWGWIRQPPGKGLEWIGRVDQRGSTYYNPSLKSRVTISVDTSKNQFSLKLSSVTAADTAVYYCARDAGHGVDMDVWGKGTTVTVSS VL: DIQMTQSPSSVSASVGDRVTITCRASQGISRWLAWYQQKPGKAPKLLIYAASSLQSGVPSRFSGSGSGTDFTLTISSLQPEDFATYYCQQGYVFPLTFGGGTKVEIK | 30 pM
4 | AB-28-10 (antibody, V domains shown) VH: QVQLQESGPGLVKPSETLSLTCAVSGYSISSGMGWGWIRQPPGKGLEWIGSIDQRGSTYYNPSLKSRVTISVDTSKNQFSLKLSSVTAADTAVYYCARDAGHAVDMDVWGKGTTVTVSS VL: DIQMTQSPSSVSASVGDRVTITCRASQGISRWLAWYQQKPGKAPKLLIYAASSLQSGVPSRFSGSGSGTDFTLTISSLQPEDFATYYCQQGYVFPLTFGGGTKVEIK | < 2 pM
5 | AB-28-11 (antibody, V domains shown) VH: QVQLQESGPGLVKPSETLSLTCAVSGYSISSGMGWDWIRQPPGKGLEWIGSIDQRGSTYYNPSLEGRVTISVDTSKNQFSLKLSSVTAADTAVYYCARDAGHGVDMDVWGKGTTVTVSS VL: DIQMTQSPSSVSASVGDRVTITCRASQGISRWLAWYQQKPGKAPKLLIYAASSLQSGVPSRFSGSGSGTDFTLTISSLQPEDFATYYCQQGYVFPLTFGGGTKVEIK | < 2 pM
6 | AB-28-7 Fab (Fab, V domains shown) VH: QVQLQESGPGLVKPSETLSLTCAVSGYSISSGMGWDWIRQPPGKGREWIGSIDQRGSTYYNPSLEGRATISVDTSKNQFSLKLSSVTAADTAVYYCARDAGHGVDMDVWGKGTTVTVSS VL: DIQMTQSPSSVSASVGDRVTITCRASQGISRWLAWYQQKPGKAPKLLIYAASSLQSGVPSRFSGSGSGTDFTLTISSLQPEDFATYYCQQGYVFPLTFGGGTKVEIK | < 2 pM
7 | AB-28-3 Fab (Fab, V domains shown) VH: QVQLQESGPGLVKPSETLSLTCAVSGYSISSGMGWGWIRQPPGKGLEWIGSVDQRGSTYYNPSLKSRVTISVDTSKNQFSLKLSSVTAADTAVYYCARDAGHGADMDVWGKGTTVTVSS VL: DIQMTQSPSSVSASVGDRVTITCRASQGISRWLAWYQQKPGKAPKLLIYAASSLQSGVPSRFSGSGSGTDFTLTISSLQPEDFATYYCQQGYVFPLTFGGGTKVEIK | 37 pM
8 | AB-28-13 (antibody, V domains shown) VH: QVQLQESGPGLVKPSETLSLTCAVSGYSISSGMGWDWIRQPPGKGLEWIGSIDQRGSTYYNPSLEGRATISVDTSKNQFSLKLSSVTAADTAVYYCARDAGHGVDMDVWGKGTTVTVSS VL: DIQMTQSPSSVSASVGDRVTITCRASQGISRWLAWYQQKPGKAPKLLIYAASSLQSGVPSRFSGSGSGTDFTLTISSLQPEDFATYYCQQGYVFPLTFGGGTKVEIK | < 2 pM
9 | AB-28-8 Fab (Fab, V domains shown) VH: QVQLQESGPGLVKPSETLSLTCAVSGYSISSGMGWDWIRQPPGKGLEWIGSIDQRGSTYYNPPLESRVTISVDTSKNQFSLKLSSVTAADTAVYYCARDAGHGVDMDVWGKGTTVTVSS VL: DIQMTQSPSSVSASVGDRVTITCRASQGISRWLAWYQQKPGKAPKLLIYAASSLQSGVPSRFSGSGSGTDFTLTISSLQPEDFATYYCQQGYVFPLTFGGGTKVEIK | < 2 pM
10 | AB-28 Fab fragment (Fab, V domains shown) VH: QVQLQESGPGLVKPSETLSLTCAVSGYSISSGMGWGWIRQPPGKGLEWIGSIDQRGSTYYNPSLKSRVTISVDTSKNQFSLKLSSVTAADTAVYYCARDAGHGVDMDVWGKGTTVTVSS VL: DIQMTQSPSSVSASVGDRVTITCRASQGISRWLAWYQQKPGKAPKLLIYAASSLQSGVPSRFSGSGSGTDFTLTISSLQPEDFATYYCQQGYVFPLTFGGGTKVEIK | < 2 pM
11 | AB-28-12 (antibody, V domains shown) VH: QVQLQESGPGLVKPSETLSLTCAVSGYSISSGMGWDWIRQPPGKGREWIGSIDQRGSTYYNPSLEGRVTISVDTSKNQFSLKLSSVTAADTAVYYCARDAGHGVDMDVWGKGTTVTVSS VL: DIQMTQSPSSVSASVGDRVTITCRASQGISRWLAWYQQKPGKAPKLLIYAASSLQSGVPSRFSGSGSGTDFTLTISSLQPEDFATYYCQQGYVFPLTFGGGTKVEIK | < 2 pM
12 | AB-28-4 (antibody, V domains shown) VH: QVQLQESGPGLVKPSETLSLTCAVSGYPISSGMGWGWIRQPPGKGLEWIGRIDQRGSTYYNPSLKSRATISVDTSKNQFSLKLSSVTAADTAVYYCARDAGHGVDMDVWGKGTTVTVSS VL: DIQMTQSPSSVSASVGDRVTITCRASQGISRWLAWYQQKPGKAPKLLIYAASSLQSGVPSRFSGSGSGTDFTLTISSLQPEDFATYYCQQGYVFPLTFGGGTKVEIK | 23 pM

Reference: patent US20160244511A1 (published 2016)
